Experimental data: PubChem BioAssay AID1259414 (Drosophila RNAi Screening Center, 2018)
The screen tested about 24,000 reagents; this is an unselected part of those with a known target gene and a result. Of all reagents, about 1,210 (5%) got an active call. 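Inactive calls also include excluded dsRNAs with several or no targets, genes unexpressed in JW18, and well A1, regardless of score.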 Names joined by + are all predicted targets of the reagent.

- Aim: 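Fly genes that alter Wolbachia amount inside host cells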 (primary screen)
- System: Drosophila JW18 cells infected with Wolbachia
- Reagents: long dsRNA against Drosophila genes, 0.25 µg dsRNA per well of a 384-well plate
- Timing: 5 days
- Treatment: cells persistently infected with Wolbachia before knock-down; no added drug
- Read-out: 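Automated imaging of bacterial rRNA staining divided by host cell count, reported as plate-normalised robust z-score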
- Scale: Wolbachia per cell robust z: higher = more Wolbachia per host cell than the plate typical
- Rule for the call: 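Active if absolute robust z reaches 1.5 in two or more of three replicates, leaving out multi- or no-target dsRNAs, genes unexpressed in JW18 and A1 wells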

| gene | amplicon | Wolbachia per cell robust z, rep 1 | Wolbachia per cell robust z, rep 2 | Wolbachia per cell robust z, rep 3 | Call |
| --- | --- | --- | --- | --- | --- |
| DCTN3-p24 (Dynactin 3, p24 subunit) | DRSC04592 | 0.863 | -0.242 | -2.52 | inactive |
| DCTN3-p24 (Dynactin 3, p24 subunit) | DRSC29156 | 0.373 | 0.125 | -1.18 | inactive |
| CG12374 | DRSC06143 | -1.87 | -0.477 | -1.03 | inactive |
| CG8042 | DRSC09676 | -6.99 | -4.75 | 0.437 | active |
| CG8042 | DRSC24712 | 0.978 | 0.882 | -0.431 | inactive |
| CG7724 | DRSC10905 | -1.62 | -1.89 | -1.25 | inactive |
| Phax (Phosphorylated adaptor for RNA export) | DRSC07066 | 0.923 | 1.05 | -0.504 | inactive |
| CG33922 | DRSC38939 | -1.19 | -1.24 | -0.445 | inactive |
| CG13068 | DRSC09951 | -0.184 | 0.495 | -1.13 | inactive |
| CG13068 | DRSC27150 | 1.09 | -0.0992 | 1 | inactive |
| GV1 | DRSC08228 | -0.0366 | -2.72 | 0.154 | inactive |
| GV1 | DRSC25953 | 0.188 | 0.804 | 0.314 | inactive |
| CG13871 | DRSC06430 | -1.48 | 0.403 | 0.407 | inactive |
| CG13871 | DRSC27979 | -0.216 | 1.57 | 1.05 | inactive |
| CG14879 | DRSC15003 | 0.77 | 0.534 | 0.482 | inactive |
| CG14879 | DRSC28083 | 0.32 | 1.06 | 1.35 | inactive |
| CG31347 | DRSC21582 | -0.0758 | 0.175 | 0.548 | inactive |
| BomS2 (Bomanin Short 2) | DRSC21488 | -1.25 | -0.873 | -1.34 | inactive |
| CG7548 | DRSC10874 | 1.57 | 0.689 | 1.69 | inactive |
| CG7548 | DRSC29043 | -0.149 | -0.236 | -0.348 | inactive |
| Odc1 (Ornithine decarboxylase 1) | DRSC07482 | -0.28 | -2.89 | -2.37 | inactive |
| Odc1 (Ornithine decarboxylase 1) | DRSC29610 | -0.559 | 0.014 | 0.707 | inactive |
| CG10222 | DRSC09714 | 0.724 | -2.05 | 0.074 | inactive |
| CG10222 | DRSC28067 | -0.3 | 0.211 | 1.45 | inactive |
| Frmd5 (FERM domain containing) | DRSC02802 | -0.829 | 0.604 | -2.13 | inactive |
| veil | DRSC06892 | -0.0605 | -1.2 | 0.91 | inactive |
| veil | DRSC41414 | -0.137 | -2.16 | -0.932 | inactive |
| CG33170 | DRSC22366 | 0.87 | 0.21 | 0.57 | inactive |
| Drl-2 (Derailed 2) | DRSC05393 | 0.943 | 1.39 | 1.28 | inactive |
| Drl-2 (Derailed 2) | DRSC06155 | 0.57 | 1.18 | 0.643 | inactive |
| Drl-2 (Derailed 2) | DRSC06858 | 0.286 | 0.973 | 0.231 | inactive |
| CG10561 | DRSC02068 | 0.787 | 1.39 | -0.15 | inactive |
| CCDC151 (Coiled-coil domain containing protein 151) | DRSC10131 | -3.63 | 0.998 | -1.04 | inactive |
| CCDC151 (Coiled-coil domain containing protein 151) | DRSC27319 | 0.349 | -1.35 | -0.065 | inactive |
| CG6972 | DRSC16159 | 0.47 | -0.376 | 1.15 | inactive |
| CG6972 | DRSC29649 | -0.427 | -0.266 | -0.98 | inactive |
| Arf6 (ADP ribosylation factor 6) | DRSC05921 | 0.367 | 1.01 | -0.0804 | inactive |
| lncRNA:CR44241 + Trpm | DRSC40571 | 0.171 | 0.88 | 0.233 | inactive |
| RhoBTB (Rho-related BTB domain containing) | DRSC11877 | 0.435 | 0.425 | 0.252 | inactive |
| CG4757 | DRSC14130 | 0.183 | -5.68 | 0.67 | inactive |
| NimC4 (Nimrod C4) | DRSC01945 | -0.234 | -6.05 | -0.918 | inactive |
| CG33267 | DRSC09120 | -0.0574 | -0.726 | -0.464 | inactive |
| CG32642 | DRSC18959 | -0.37 | 0.0582 | -1.86 | inactive |
| CG32642 | DRSC27983 | -1.71 | -2.8 | -0.151 | inactive |
| CG15812 | DRSC08479 | -0.192 | -1.85 | -0.274 | inactive |
| CG13842 | DRSC14692 | 0.416 | 0.346 | 1.79 | inactive |
| disco (disconnected) | DRSC20323 | 0.754 | -0.0345 | -4.34 | inactive |
| disco (disconnected) | DRSC25113 | -0.804 | -0.601 | 0.631 | inactive |
| Or47b (Odorant receptor 47b) | DRSC07492 | -0.438 | -1.5 | -0.0448 | inactive |
| Snx6 (Sorting nexin 6) | DRSC03081 | 0.252 | -0.244 | 0.133 | inactive |
| Snx6 (Sorting nexin 6) | DRSC29702 | 0.968 | 1.38 | 0.839 | inactive |
| CG1812 | DRSC20557 | -0.0724 | 0.377 | 0.247 | inactive |
| CG1812 | DRSC26769 | 0.154 | -0.785 | 1.05 | inactive |
| Jabba | DRSC06521 | -1.75 | -0.268 | -0.383 | inactive |
| Jabba | DRSC37792 | 0.311 | 1.01 | 1.39 | inactive |
| sa (spermatocyte arrest) | DRSC11649 | -0.636 | -0.0926 | 0.793 | inactive |
| Jhbp12 (Juvenile hormone binding protein 12) | DRSC14621 | 0.0119 | -0.344 | -0.175 | inactive |
| KP78a + KP78b | DRSC16721 | -3.49 | 0.0876 | 0.478 | inactive |
| KP78a + KP78b | DRSC29265 | -0.754 | -0.199 | 0.765 | inactive |
| dpr21 (defective proboscis extension response 21) | DRSC41420 | 1.05 | 0.56 | 1.11 | inactive |
| CG32206 | DRSC10094 | 0.384 | -0.812 | -0.406 | inactive |
| CG32206 | DRSC10095 | 0.503 | 1.2 | -3.46 | inactive |
| CG32206 | DRSC10096 | -1.33 | -0.627 | -1 | inactive |
| CG32206 | DRSC11080 | -2.19 | -0.678 | -0.941 | inactive |
| CG15435 | DRSC00450 | -5.54 | 0.871 | 0.987 | inactive |
| CG15435 | DRSC27701 | -0.318 | 1.1 | 0.823 | inactive |
| ND-MWFE (NADH dehydrogenase (ubiquinone) MWFE subunit) | DRSC06364 | -0.902 | -5.06 | -2.48 | active |
| SCCRO (Squamous cell carcinoma-related oncogene) | DRSC10844 | -2.18 | -2.53 | -0.852 | active |
| SCCRO (Squamous cell carcinoma-related oncogene) | DRSC29998 | 0.223 | 1.16 | 0.354 | inactive |

In a second layout: results already given.
CG15435 [DRSC27701]
- Wolbachia per cell robust z, rep 1: -0.318
- Wolbachia per cell robust z, rep 2: 1.1
- Wolbachia per cell robust z, rep 3: 0.823
- Call: inactive

ND-MWFE (NADH dehydrogenase (ubiquinone) MWFE subunit) [DRSC06364]
- Wolbachia per cell robust z, rep 1: -0.902
- Wolbachia per cell robust z, rep 2: -5.06
- Wolbachia per cell robust z, rep 3: -2.48
- Call: active

SCCRO (Squamous cell carcinoma-related oncogene) [DRSC10844]
- Wolbachia per cell robust z, rep 1: -2.18
- Wolbachia per cell robust z, rep 2: -2.53
- Wolbachia per cell robust z, rep 3: -0.852
- Call: active

SCCRO (Squamous cell carcinoma-related oncogene) [DRSC29998]
- Wolbachia per cell robust z, rep 1: 0.223
- Wolbachia per cell robust z, rep 2: 1.16
- Wolbachia per cell robust z, rep 3: 0.354
- Call: inactive
